Anti-infective test results gathered from many reports (values: NIAID ChemDB through PubChem).

Shared fields: tests on isolated targets

Percent inhibition refers to the dose given; in toxicity tests it is the harm to the cells.

structure | changes | tested at | read-out | strain | protein | read by | agent | value
CCCCCCCCCCCNc1nnc(NC(=O)CCCCCl)s1 |  |  | IC50 |  | Polymerase |  | Human cytomegalovirus | <25 µM
CCN(C(=O)CCC1CCCC1)c1cc(-c2ccccc2)sc1C(=O)O |  |  | IC50 |  | NS3 ATPase |  | Hepatitis C virus | <5 µM
Cc1cn([C@@H]2O[C@H](CO[Si](C)(C)C(C)(C)C)C3(OS(=O)(=O)C=C3N)[C@H]2O[Si](C)(C)C(C)(C)C)c(=O)n(C)c1=O | RT-N137E |  | fold resistance |  | Reverse transcriptase | nucleotide incorporation / radiometric | HIV | 1.1
CC1(C)N=C(N)N=C(N)N1c1cccc(CC(=O)Nc2ccc(S(=O)(=O)F)cc2)c1.CCS(=O)(=O)O |  |  | IC50 | RH | DHFR |  | Toxoplasma gondii | 0.14 µM
Cc1ccc(C(=O)N(c2cc(-c3cccc(C(F)(F)F)c3)sc2C(=O)O)C(C)C)c(OCc2ccccc2)c1 |  |  | IC50 |  | NS3 ATPase |  | Hepatitis C virus | <5 µM
O=c1ccn([C@@H]2O[C@H](CO)[C@@H](O)[C@H]2O)c(=O)[nH]1 |  | 2000 µM | inhibition | RH | Uracil phosphoribosyltransferase |  | Toxoplasma gondii | <10%
CN(Cc1cnc2nc(N)nc(N)c2n1)c1c(Cl)cc(C(=O)N[C@@H](CCC(=O)O)C(=O)O)cc1Br |  |  | IC50 | RH | DHFR |  | Toxoplasma gondii | 0.00093 µM
O=C(O)c1sc(-c2ccccc2)cc1NS(=O)(=O)c1cc(Cl)sc1Cl |  |  | IC50 |  | NS3 ATPase |  | Hepatitis C virus | 5–20 µM
CC(C)=CCOc1cc(NC(=S)c2ccoc2C)ccc1Cl | RT-N137E |  | fold resistance |  | Reverse transcriptase | nucleotide incorporation / radiometric | HIV | 0.29
On1ccccc1=S |  |  | Ki | RH | Uracil phosphoribosyltransferase |  | Toxoplasma gondii | 1600 µM
CN(C(=O)C1CCCC1)c1cc(-c2ccccc2)sc1C(=O)O |  |  | IC50 |  | NS3 ATPase |  | Hepatitis C virus | <5 µM
O=c1cn[nH]c(=O)[nH]1 |  |  | IC50 | RH | Uracil phosphoribosyltransferase |  | Toxoplasma gondii | >2000 µM
O=C(O)c1sc(-c2ccccc2)cc1N(CC1CCNCC1)C(=O)c1ccccc1Cl |  |  | IC50 |  | NS3 ATPase |  | Hepatitis C virus | <5 µM
CN(Cc1cnc2nc(N)nc(N)c2n1)c1ccc(C(=O)N[C@@H](CCC(=O)O)C(=O)O)cc1C(F)(F)F |  |  | IC50 | RH | DHFR |  | Toxoplasma gondii | 0.0067 µM
O=C(Nc1nnc(NCCc2cnc[nH]2)s1)c1ccc(I)cc1 |  |  | IC50 |  | Polymerase |  | Human cytomegalovirus | >25 µM
CC(=O)Nc1ccc(-c2cc(NS(=O)(=O)c3ccccc3C)c(C(=O)O)s2)cc1 |  |  | IC50 |  | NS3 ATPase |  | Hepatitis C virus | 5–20 µM
COc1cnccn1 |  | 2000 µM | inhibition | RH | Uracil phosphoribosyltransferase |  | Toxoplasma gondii | <10%
Cc1ccc2c(ccc3nc(N)nc(N)c32)c1 |  |  | IC50 | RH | DHFR |  | Toxoplasma gondii | 0.052 µM
NS(=O)(=O)c1ccc(CCNc2nnc(NC(=O)c3c(Cl)cccc3Cl)s2)cc1 |  |  | IC50 |  | Polymerase |  | Human cytomegalovirus | >25 µM
C=CCN(C(=O)OCc1ccc([N+](=O)[O-])cc1)C1CCN(CC[C@](C)(CN(C)S(=O)(=O)c2ccccc2)c2ccccc2)CC1 | CCR5-Y251A |  | IC50 |  | CCR5 | radiometric |  | 0.018 µM
CO[P@](=O)(c1cc(C)cc(/C=C/C#N)c1)c1c(C(N)=O)[nH]c2ccc(Cl)cc12 | V108I |  | IC50 |  | Reverse transcriptase |  | HIV | 0.83 µM
Nc1nc2c(ncn2[C@H]2CC[C@@H](COP(=O)(O)OP(=O)(O)OP(=O)(O)O)O2)c(=O)[nH]1 | RT-N137K |  | IC50 |  | Reverse transcriptase | nucleotide incorporation / radiometric | HIV | 6.4 µM
O=c1[nH]cc(Cl)c(=O)[nH]1 |  | 2000 µM | inhibition | RH | Uracil phosphoribosyltransferase |  | Toxoplasma gondii | <5%
O=C(/C=C/c1ccccc1)Nc1nnc(NCCc2ccccc2)s1 |  |  | IC50 |  | Polymerase |  | Human cytomegalovirus | >25 µM
O=C(C1CCCCC1)N1C[C@H](CN2CCC(c3ccccc3)CC2)[C@@H](c2ccccc2)C1 | CCR5-W86A |  | IC50 |  | CCR5 | radiometric |  | >1 µM
NC1C(=O)NC(=O)NC1=O |  | 2000 µM | inhibition | RH | Uracil phosphoribosyltransferase |  | Toxoplasma gondii | <5%
O=C(c1ccccc1)N1C[C@H](CN2CCC(c3ccccc3)CC2)[C@@H](c2ccccc2)C1 |  |  | IC50 |  | CCR5 | radiometric |  | 0.01 µM
CC1CCC(C(=O)N(c2cc(C3=CCN(C(=O)OCc4ccccc4)CC3)sc2C(=O)O)C(C)C)CC1 |  |  | IC50 |  | NS3 ATPase |  | Hepatitis C virus | <5 µM
Oc1cccc(O)c1 |  |  | IC50 | RH | Uracil phosphoribosyltransferase |  | Toxoplasma gondii | >2000 µM

A second listing of 4 rows from above:

structure,changes,tested at,read-out,strain,protein,read by,agent,value
O=C(c1ccccc1)N1C[C@H](CN2CCC(c3ccccc3)CC2)[C@@H](c2ccccc2)C1,,,IC50,,CCR5,radiometric,,0.01 µM
CC1CCC(C(=O)N(c2cc(C3=CCN(C(=O)OCc4ccccc4)CC3)sc2C(=O)O)C(C)C)CC1,,,IC50,,NS3 ATPase,,Hepatitis C virus,<5 µM
O=C(Nc1nnc(NCCc2cnc[nH]2)s1)c1ccc(I)cc1,,,IC50,,Polymerase,,Human cytomegalovirus,>25 µM
O=C(C1CCCCC1)N1C[C@H](CN2CCC(c3ccccc3)CC2)[C@@H](c2ccccc2)C1,CCR5-W86A,,IC50,,CCR5,radiometric,,>1 µM

Fold resistance: result on the changed form divided by that on wild type. a–b is a range or a potency band. Rows are shuffled and stem from different studies. ICn is the concentration giving n% inhibition. Blank or dashed fields: not listed here.